Test results from patent US20200237717A1, “Treatment of Staphylococcal and Enterococcal Infections Using Substituted Nitrostyrene Compounds” (Opal Biosciences Limited, priority 2017, published 2020).

Columns and labels:
Test in all cases: Vancomycin MIC testing of Sa375 mutant
Details in all cases: Staphylococcus aureus, read-out: Vancomycin MIC
Sa375-G560S = test system: Sa375-G560S
Sa375-G30W = test system: Sa375-G30W
Sa375-L37F = test system: Sa375-L37F

Compound: CN[C@H](CC(C)C)C(=O)N[C@H]1C(=O)N[C@@H](CC(N)=O)C(=O)N[C@H]2C(=O)N[C@H]3C(=O)N[C@H](C(=O)N[C@H](C(=O)O)c4cc(O)cc(O)c4-c4cc3ccc4O)[C@H](O)c3ccc(c(Cl)c3)Oc3cc2cc(c3O[C@@H]2O[C@H](CO)[C@@H](O)[C@H](O)[C@H]2O[C@H]2C[C@](C)(N)[C@H](O)[C@H](C)O2)Oc2ccc(cc2Cl)[C@H]1O [Vancomycin]
- MIC (Sa375-G560S): 0.5 µg/mL (≈ 0.345 µM)
- MIC (Sa375-G30W): 1 µg/mL (≈ 0.69 µM)
- MIC (Sa375-L37F): 0.5 µg/mL (≈ 0.345 µM)

Values after ≈ are worked out from the molar mass of the structure shown.
